Data taken from the supplement of paper PMC9931576.
Human monoclonal antibodies against the spike receptor-binding domain (heavy:light variable regions). IC50 against pseudoviruses bearing the spike of naturally observed variants; lower = stronger; >10 µg/ml means not reached at the top dose. No active / inactive call. The stated detection limit is 0.0005 µg/ml; values near or below 0.001 µg/ml lie at the floor of the assay.

B1: BD56-332 (protein)
chain 1: QVQLVQSGAEMQKPGASVKVSCRASEYTFTNYYFHWVRQAPGQGLEWMGIINPSGGSTTYAQNFQGRVTMTGDTSTSTVYMELSSLRSDDTAVYYCATGGFVPNHSYAMEVWGQGTTVTISS
chain 2: EIVMTQSPATLSVSPGERATLSCRASQSVSSKLAWYQQKPGQAPRLLIYDAATRTTGVPARFSGSGSGTEFTLSISGLQSEDFAVYYCQQYKNWPFSFGGGTKVEIK
B2: BD56-395 (protein)
chain 1: EVQLVQSGAEVKKPGESLRISCQASGYTLANYWVAWVRQVPGKGLEWIGVSYPDDSDSRISPSFQGQVVFSADKSLNTAYLQWSSVRPSDTGTYYCSRQRWGYCVGKNCESEGYYFMAMDVWGQGTTVTVSS
chain 2: QAVVTQPSSLSGSPGTTARLTCTLRSGINVAAYTLYWYQQKSGGPPQYVLKYKSPSDKQVASGVSSRFSAFKDASANAGILVISRLMSDDEADYYCVIWHGGVWVFGGGTKLTVL
B3: BD56-400 (protein)
chain 1: EVQLVESGGGLVQPGGSLRLSCAASGLTVSSNYMSWVRQAPGKGLEWVSIIYPGGSTYYADSVKGRFTISRHNSKNTLYLQMNSLRGEDTAVYYCARDSRVNGMDVWGQGTTVTVSS
chain 2: DIQMTQSPSSLSASVGDRVTITCQASQDINNYLNWYQQKPGKAPKLLIYDASNLETGVPSRFSGSGSGTDFTFTISSLQPEDIATYYCQQYDNLPITFGQGTRLEIK
B4: BD56-411 (protein)
chain 1: EVQLVESGGGLVRPGGSLRLSCAASGVTVSSNYMNWVRQAPGKGLEWVSLFYSGGSTYYADSVKGRFTISRDNSKNTLYLQMNSLRDEDTAVYYCARDLREVGGMDVWGQGTTVTVSS
chain 2: QSVLTQPPSASGTPGQRVTISCSGSSSKIGSNDVYWYQQLPGTAPKLLIFRNSQRPSGVPDRFSGSKSGTSASLAISGLRSEDEADYYCAVWDESLSDHYVFGTGTKVTVL
B5: BD56-414 (protein)
chain 1: EVQLVESGGGLVQPGGSLRLSCAASEITVSSNYMNWVRQAPGKGLEWVSVIYPGGSTFYADSVKGRFTISRDHSKNTLYLQMNSLRAEDTAVYYCAREGLISRSLTFDIWGQGTMVTVAS
chain 2: DIQMTQSPSSLSASVGDRVTITCRASQSINNNLNWYQQKPGKAPKLLIYATSNLQSGVPSRFSGSGSGTHFTLTISSLRPEDFATYYCQQTYSTPPYTFGQGTKLEVK
B6: BD56-419 (protein)
chain 1: QITLKESGPTLVKPTQTLTLTCTFSGFSLTTSGVGVGWIRQPPGKALEWLALIYWDEDKRYSPSLKSRLTITKDTSKNQVVLTMNNMDPVDTATYYCAHHTIPTIYDYWGQGTLVTVSS
chain 2: QSALTQPASVSGSPGQSITISCTATSSDVGAYNYVSWYQQHPGKAPKLMIYDVSKRPSGVSDRFSGSKSGNTASLTISGLQAEDEADYYCSSYTTTSTVFGGGTKLTVL

How the values were obtained:
Assay in all cases: pseudovirus neutralization IC50; higher = weaker neutralization
[1] = target: SARS-CoV-2 Omicron BA.1 spike pseudovirus
Method: (§1)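 Single-round VSV luciferase pseudovirus mixed with antibody dilutions for 1 h and put on Huh-7 cells for about a day; IC50 from the dose curve.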

[2] = target: SARS-CoV-2 Omicron BA.2 spike pseudovirus
Method: as §1

[3] = target: SARS-CoV-2 Omicron BA.2.75 spike pseudovirus
Method: as §1

[4] = target: SARS-CoV-2 Omicron BA.5 spike pseudovirus
Method: as §1

[5] = target: SARS-CoV-2 Omicron BQ.1.1 spike pseudovirus
Method: as §1

[6] = target: SARS-CoV-2 Omicron XBB spike pseudovirus
Method: as §1

[7] = target: SARS-CoV-2 early D614G spike pseudovirus
Method: as §1

Row | Binder | pseudovirus neutralization IC50 [1] | pseudovirus neutralization IC50 [2] | pseudovirus neutralization IC50 [3] | pseudovirus neutralization IC50 [4] | pseudovirus neutralization IC50 [5] | pseudovirus neutralization IC50 [6] | pseudovirus neutralization IC50 [7]
1 | B1 | > 10 µg/mL | > 10 µg/mL | > 10 µg/mL | > 10 µg/mL | > 10 µg/mL | > 10 µg/mL | > 10 µg/mL
2 | B2 | 1.02 µg/mL | 1.14 µg/mL | 2.95 µg/mL | 3.05 µg/mL | 2.77 µg/mL | 3.16 µg/mL | > 10 µg/mL
3 | B3 | 0.001 µg/mL | 0.00128 µg/mL | 0.399 µg/mL | 0.00284 µg/mL | > 10 µg/mL | > 10 µg/mL | 0.126 µg/mL
4 | B4 | 0.181 µg/mL | 0.161 µg/mL | > 10 µg/mL | > 10 µg/mL | > 10 µg/mL | > 10 µg/mL | 0.00465 µg/mL
5 | B5 | 5.12 µg/mL | 2.74 µg/mL | > 10 µg/mL | 2.53 µg/mL | > 10 µg/mL | > 10 µg/mL | 0.00534 µg/mL
6 | B6 | 0.146 µg/mL | 0.00765 µg/mL | 0.251 µg/mL | 0.00969 µg/mL | > 10 µg/mL | > 10 µg/mL | 0.00241 µg/mL
